Results on 1 substance are retold here after patent US20230221313A1.

The test addresses SARS CoV-2 reporter virus particle with spike protein D614G mutation (SARS-CoV-2) (UniProt P0DTC2). Briefly: cell-based or functional assay.

Substance anti-HIV antibody VRC01 returned a Fold change GFP-/GFP+ (droplet neutralization, NGS reads), Round 1 of 1 and a Fold change GFP-/GFP+ (droplet neutralization, NGS reads), Round 2 of 0.964.
